The record followed here is ChEMBL document CHEMBL1151749, “Discovery of quinazolines as histamine H4 receptor inverse agonists using a scaffold hopping approach” (J Med Chem, 2008).

The chains behind the UniProt entries cited, without tags or fusion partners. Where a name states a change or a piece, a line headed by the entry shows the natural chain unless it says otherwise.
UniProt Q9H3N8: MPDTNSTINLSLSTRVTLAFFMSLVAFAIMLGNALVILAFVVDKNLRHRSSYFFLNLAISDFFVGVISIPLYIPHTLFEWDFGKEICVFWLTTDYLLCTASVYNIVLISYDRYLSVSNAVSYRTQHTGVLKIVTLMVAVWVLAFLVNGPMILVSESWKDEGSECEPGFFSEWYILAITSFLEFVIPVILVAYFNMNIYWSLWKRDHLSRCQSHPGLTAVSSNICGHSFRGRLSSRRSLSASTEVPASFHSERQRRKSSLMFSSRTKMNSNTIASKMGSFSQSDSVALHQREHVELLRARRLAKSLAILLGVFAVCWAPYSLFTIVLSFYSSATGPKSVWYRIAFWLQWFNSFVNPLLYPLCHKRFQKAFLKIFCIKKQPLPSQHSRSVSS

For this assay, the target named is Histamine H4 receptor (Homo sapiens, UniProt Q9H3N8). As to the kind of experiment: Inverse agonist activity at human histamine H4 receptor expressed in HEK293T cells by CRE-beta-galactosidase assay. It counts as functional, cell-based, HEK-293T.

On to `CN1CCN(c2nc(NCc3cccs3)c3cc(Cl)ccc3n2)CC1`, for which the IC50 (usually the point on the concentration scale where inhibition reaches its midpoint) was 69.2 nM.
